Measurements as given in patent US20250034557.

Target: T1, Tn5 transposase (UniProt Q46731)
T1 sequence (looked up, limits assumed): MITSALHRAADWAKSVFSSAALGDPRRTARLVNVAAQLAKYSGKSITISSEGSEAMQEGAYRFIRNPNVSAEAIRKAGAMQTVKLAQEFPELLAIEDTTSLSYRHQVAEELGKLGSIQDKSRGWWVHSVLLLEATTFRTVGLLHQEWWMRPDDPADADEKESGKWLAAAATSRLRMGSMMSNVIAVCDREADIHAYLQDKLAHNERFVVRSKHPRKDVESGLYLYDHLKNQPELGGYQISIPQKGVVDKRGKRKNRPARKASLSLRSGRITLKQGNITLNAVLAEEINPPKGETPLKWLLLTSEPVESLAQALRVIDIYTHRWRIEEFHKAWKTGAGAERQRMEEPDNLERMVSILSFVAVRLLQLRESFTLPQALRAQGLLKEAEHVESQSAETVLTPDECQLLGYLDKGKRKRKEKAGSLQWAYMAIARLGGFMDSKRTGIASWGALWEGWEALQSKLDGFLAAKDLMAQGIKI
Assay: activity assay
Conditions: 5'-phosphate and 3' inverted dT on ME' strand; pUC19 tagmentation with sequenced library; pooled result over i7 adapters; 2.5 mM MgCl2, TAPS pH 8.5, 55 C; purified recombinant protein

CAAGCAGAAGACGGCATACGAGATGAGTTAGTTGGTCTCGTGGGCTCGGAGATGTGTATAAGAGACAG / CTGTCTCTTATACACATCT [i7 adapter / ME']
activity on this sequence: active

The exact form of at least one protein or probe is not confirmed. Where a protein sequence is shown, tags need not be part of it.
